Results of unrelated studies side by side (data: NIAID ChemDB).

Common to all: enzyme or target tests; organism: HIV-1; target: Protease; method: substrate cleavage; endpoint: IC50

Blank or dashed fields: not listed here.

smiles | conditions | result
CC1=CC[C@H]([C@@H](C)C2CC[C@@]3(C)C4=C(C=C5C=CC(=O)OC(C)(C)[C@@H]5CC4)CC[C@]23C)OC1=O |  | 8 µg/mL
CC(C)[C@@H](NC(=O)N(C)Cc1cncs1)C(=O)N[C@@H](Cc1ccccc1)[C@H](O)CN1CCN(Cc2ccccc2)C[C@H]1C(=O)NC(C)(C)C |  | 0.12 µM
CCc1ncc(COC(=O)N[C@H](C(=O)N[C@@H](Cc2ccccc2)[C@H](O)CN2CCN(Cc3ccc(OC)c(OC)c3)C[C@H]2C(=O)NC(C)(C)C)C(C)C)s1 |  | <1 µM
CC(C)c1nc(CN(C)C(=O)N[C@@H](C(=O)NN(CC2C=COC=C2)C[C@H](O)[C@H](Cc2ccccc2)NC(=O)OCc2cncs2)C(C)C)cs1 |  | 0.0032 µM
O=C(NC(CO)NC(=O)[C@H](CC1CCCCC1)NC(=O)OCC1c2ccccc2-c2ccccc21)OCC1c2ccccc2-c2ccccc21 |  | >5 µM
C[C@@H](O)[C@H](NC(=O)Oc1ccccc1)C(=O)N[C@@H](Cc1ccccc1)[C@H](O)[C@@H](O)[C@H](Cc1ccccc1)NC(=O)c1cc(=O)c2ccccc2[nH]1 |  | 0.5 µM
O=C(NC(CO)NC(=O)[C@H](Cc1ccccc1)NC(=O)OCc1ccccc1)OCc1ccccc1 |  | 4.6 µM
NC(=O)C[C@H](NC(=O)c1ccc2ccccc2n1)C(=O)N[C@@H](Cc1ccccc1)C(=O)Cc1ccccc1 |  | 100 µM
CC[C@H](C)[C@H](NC(=O)[C@H](CCC(N)=O)NC(=O)[C@@H]1CCCN1C[C@H](Cc1ccccc1)NC(=O)[C@H](CC(N)=O)NC(=O)[C@H](Cc1ccccc1)NC(C)=O)C(N)=O | pH 5.75 | >10 µM
CC(C)c1nc(CN(C)C(=O)N[C@@H](C(=O)NN(Cc2ccccc2)C[C@H](O)[C@H](Cc2ccccc2)NC(=O)OCc2cncs2)C(C)C)cs1 |  | <0.0005 µM
CC(C)(C)OC(=O)N[C@@H](Cc1ccccc1)C(=O)NC(CCO)NC(=O)[C@@H](Cc1ccccc1)NC(=O)OC(C)(C)C |  | >10 µM
COc1ccccc1CN(C[C@H](O)[C@H](Cc1ccccc1)NC(=O)OCc1ccccc1)NC(=O)OC(C)(C)C |  | 0.013 µM
COC(=O)N[C@H](C(=O)N[C@@H](Cc1ccccc1)[C@@H](O)CN(Cc1ccc(C)cc1)NC(=O)[C@@H](NC(=O)OC)C(C)C)C(C)C |  | 0.019 µM
CC(C)(C)OC(=O)NN(Cc1ccc(Cl)cc1)C[C@H](O)[C@H](Cc1ccccc1)NC(=O)OCc1ccccc1 |  | 0.016 µM
CC(C)[C@H](NC(=O)OCC1c2ccccc2-c2ccccc21)C(=O)N[C@@H](Cc1ccccc1)[C@H](O)[C@@H](O)[C@H](Cc1ccccc1)NC(=O)[C@@H](NC(=O)[C@H](Cc1c[nH]c2ccccc12)NC(=O)OC1c2ccccc2-c2ccccc21)C(C)C |  | 4 µM
CC(C)(C)NC(=O)[C@@H]1CCCN1C(=O)C(O)[C@H](Cc1ccccc1)NC(=O)OCc1ccccc1 |  | >10 µM
CC(C)c1nc(CN(C)C(=O)N[C@@H](C(=O)NN(Cc2ccccc2)C[C@H](O)[C@H](Cc2ccccc2)NC(=O)OCc2cncs2)C(C)C)co1 |  | <0.0005 µM
O=C(N[C@@H](Cc1ccccc1)C(=O)NC(CO)NC(=O)[C@@H](Cc1ccccc1)NC(=O)OCc1ccccc1)OCc1ccccc1 |  | >10 µM
CC(C)[C@@H](NC(=O)N(C)Cc1cncs1)C(=O)N[C@@H](Cc1ccccc1)[C@H](O)CN1CCN(Cc2cncs2)C[C@H]1C(=O)NC(C)(C)C |  | 0.097 µM
O=C(NC(CO)NC(=O)[C@H](CC1CCCCC1)NC(=O)OCc1ccccc1)OCc1ccccc1 |  | >5 µM
CC(C)[C@H](NC(=O)N(C)Cc1cncs1)C(=O)N[C@@H](Cc1ccccc1)[C@H](O)CN1CCN(Cc2cncs2)C[C@H]1C(=O)NC(C)(C)C |  | ~0.0005 µM
CC(C)N(CC(=O)NC[C@]1(O)C2C3C4C2[C@](O)(CC(N)=O)C2C1[C@@H]3C[C@@H]42)C(=O)CN(C)C(=O)OCc1ccccc1 |  | 0.75 µM
COC(=O)N[C@H](C(=O)N[C@@H](Cc1ccccc1)[C@@H](O)CN(CCC(C)C)NC(=O)[C@@H](NC(=O)OC)C(C)C)C(C)C |  | 0.016 µM
CC[C@H](C)[C@H](NC(=O)[C@@H]1CCCN1C(=O)[C@H](O)[C@H](Cc1ccccc1)NC(=O)[C@H](CC(=O)O)NC(=O)[C@H](Cc1ccccc1)NC(=O)[C@@H](N)CO)C(=O)N[C@H](C(N)=O)C(C)C | pH 5.75 | 0.1 µM
O=C(N[C@@H](Cc1ccccc1)C(=O)NC(CO)NC(=O)[C@H](Cc1ccccc1)NC(=O)OCc1ccccc1)OCc1ccccc1 |  | 5.2 µM
COC(=O)N[C@H](C(=O)N[C@@H](Cc1ccccc1)[C@@H](O)CN(Cc1ccc(O)cc1)NC(=O)[C@@H](NC(=O)OC)C(C)C)C(C)C |  | 0.018 µM
O=C(COc1ccccc1)N[C@@H](Cc1ccccc1)[C@@H](O)[C@H](O)[C@H](Cc1ccccc1)NC(=O)COc1ccccc1 |  | 2 µM
O=C(CO)Nc1ccc(C(=O)O)cc1 |  | >10 µM
COC(=O)N[C@H](C(=O)N[C@@H](Cc1ccccc1)[C@H](O)CN(CC1CCCCC1)NC(=O)[C@@H](NC(=O)OC)C(C)C)C(C)C |  | 1.06 µM
CC(C)c1ncc(COC(=O)N[C@H](C(=O)N[C@@H](Cc2ccccc2)[C@H](O)CN2C[C@H]3CCCC[C@H]3C[C@H]2C(=O)NC(C)(C)C)C(C)C)s1 |  | ~0.0005 µM
CC(C)(C)OC(=O)N[C@@H](Cc1ccccc1)C(=O)O |  | 550 µM

A second listing of 4 rows from above:

smiles	conditions	result
CC(C)c1ncc(COC(=O)N[C@H](C(=O)N[C@@H](Cc2ccccc2)[C@H](O)CN2C[C@H]3CCCC[C@H]3C[C@H]2C(=O)NC(C)(C)C)C(C)C)s1		~0.0005 µM
CC(C)[C@H](NC(=O)OCC1c2ccccc2-c2ccccc21)C(=O)N[C@@H](Cc1ccccc1)[C@H](O)[C@@H](O)[C@H](Cc1ccccc1)NC(=O)[C@@H](NC(=O)[C@H](Cc1c[nH]c2ccccc12)NC(=O)OC1c2ccccc2-c2ccccc21)C(C)C		4 µM
O=C(N[C@@H](Cc1ccccc1)C(=O)NC(CO)NC(=O)[C@@H](Cc1ccccc1)NC(=O)OCc1ccccc1)OCc1ccccc1		>10 µM
O=C(NC(CO)NC(=O)[C@H](CC1CCCCC1)NC(=O)OCC1c2ccccc2-c2ccccc21)OCC1c2ccccc2-c2ccccc21		>5 µM

ICn: concentration for n% inhibition. Conditions beyond the fields shown may differ between rows.